Anti-infective test results gathered from many reports (values: NIAID ChemDB through PubChem).

Common to all: target-level tests; agent: Toxoplasma gondii; target: DHFR; measure: IC50

ICn is the concentration giving n% inhibition.

{"SMILES": "Cc1ccnc(NS(=O)(=O)c2ccc(N)cc2)n1", "value": "7.2 µM"}
{"SMILES": "Nc1nc(N)c2nc(CCc3ccnc4ccccc34)cnc2n1", "value": "0.61 µM"}
{"SMILES": "COc1ncnc(NS(=O)(=O)c2ccc(N)cc2)c1OC", "value": "110 µM"}
{"SMILES": "Nc1nc(N)c2nc(CCc3ccccc3)cnc2n1", "value": "0.74 µM"}
{"SMILES": "O=C1C(CCS(=O)c2ccccc2)C(=O)N(c2ccccc2)N1c1ccccc1", "value": "1000 µM"}
{"SMILES": "Nc1nc(N)c2nc(CCc3ccc4ccccc4n3)cnc2n1", "value": "0.59 µM"}
{"SMILES": "Nc1nc(N)c2ccc(Cl)cc2n1", "value": "81 µM"}
{"SMILES": "COc1cc(CCc2cnc3nc(N)nc(N)c3n2)cc(OC)c1OC", "value": "0.7 µM"}
{"SMILES": "Nc1nc(N)c2nc(CC3CCCCC3)c(CC3CCCCC3)nc2n1", "value": "0.46 µM"}
{"SMILES": "Cl.Nc1nc(N)c2nc(CCc3ccncc3)cnc2n1", "value": "6.39 µM"}
{"SMILES": "Cc1cc(C)nc(NS(=O)(=O)c2ccc(N)cc2)n1", "value": "5.7 µM"}
{"SMILES": "COc1ccc(OC)c(NCc2csc3nc(N)nc(N)c23)c1", "value": ">10 µM"}
{"SMILES": "Nc1ccc(S(=O)(=O)c2ccc(N)cc2)cc1", "value": "0.25 µM"}
{"SMILES": "Nc1nc(N)c2c(CNc3cc(Cl)c(-n4cccc4)c(Cl)c3)csc2n1", "value": ">10 µM"}
{"SMILES": "CCc1nc2nc(N)nc(N)c2nc1-c1ccccc1OC", "value": "0.018 µM"}
{"SMILES": "Nc1ccc(S(=O)(=O)Nc2ccccn2)cc1", "value": "4.6 µM"}
{"SMILES": "Nc1nc(N)c2nc(Cc3ccc(Cl)c(Cl)c3)c(Cc3ccc(Cl)c(Cl)c3)nc2n1", "value": ">28 µM"}
{"SMILES": "CCc1nc2nc(N)nc(N)c2nc1CC", "value": "1 µM"}

A second listing of 2 rows from above:

SMILES	value
Nc1ccc(S(=O)(=O)c2ccc(N)cc2)cc1	0.25 µM
Cc1cc(C)nc(NS(=O)(=O)c2ccc(N)cc2)n1	5.7 µM

Neighbouring rows are from separate reports.